Measured values from several laboratories, pooled; numbers as filed in NIAID ChemDB.

Shared fields: cytotoxicity tests; cell line: PBL; endpoint: CC50

CCn is the concentration with n% toxicity to the cells. Conditions beyond the fields shown may differ between rows. a–b is a range or a potency band.

{"structure": "C[C@H](Cn1cnc2c(N)ncnc21)OCP(=O)(O)O", "value": ">100 µg/mL"}
{"structure": "CCc1c(Sc2ccccc2)n(COCc2ccccc2)c(=O)[nH]c1=O", "value": "22 µM"}
{"structure": "CC(CO)n1cnc2c(Cl)ncnc21", "value": ">100 µM"}
{"structure": "CCn1c(C)c(C(=O)OC)c(C(=O)OC)c1Cc1ccccc1", "value": "175 µM"}
{"structure": "COc1ncnc2c1ncn2C(C)CO", "value": ">100 µM"}
{"structure": "CC(=O)c1ccc(C)cc1NC(C(N)=O)c1c(Cl)cccc1Cl", "value": ">300 µM"}
{"structure": "Nc1nc(Cl)c2ncn(CCCO)c2n1", "value": ">100 µM"}
{"structure": "CCCCCCCCNCC(O)CCCCCCCCCn1c(=O)c2c(ncn2C)n(C)c1=O", "value": ">32 µM"}
{"structure": "CC(CO)n1cnc2c(Cl)nc(N)nc21", "value": ">100 µM"}
{"structure": "CSCC[C@H](N)C(=O)N[C@H](C(=O)N[C@@H](CC(C)C)C(=O)N[C@@H](CC(N)=O)C(=O)N[C@@H](Cc1ccccc1)C(=O)O)[C@@H](C)O", "value": ">200 µg/mL"}
{"structure": "COc1cc(N=Nc2cc(S(=O)(=O)O)cc3cc(S(=O)(=O)O)cc(O)c23)c(C)cc1NC(=O)Nc1cc(C)c(N=Nc2cc(S(=O)(=O)O)cc3cc(S(=O)(=O)O)cc(O)c23)cc1OC", "value": ">100 µM"}
{"structure": "Cc1nc(Oc2ccc(S(=O)(=O)C(C)C)cc2)ccc1CN1CCC(N2C(=O)N(c3cc(C(N)=O)c(F)cc3F)C[C@H]2c2ccccc2)CC1", "value": "1.1 nM"}
{"structure": "NC(=O)c1c(Cl)c(-c2cccnc2)n2c1CCCC2", "value": "144 µM"}
{"structure": "O=C1c2c(O)cc(O)cc2O[C@]12c1c(cc(O)c3c1O[C@H](c1ccc(O)cc1)CC3)O[C@H]2c1ccc(O)cc1", "value": "65 µg/mL"}
{"structure": "CC(CO)n1cnc2c(N)ncnc21", "value": ">100 µM"}
{"structure": "C[C@H](CCC(=O)O)[C@H]1CC[C@H]2[C@@H]3[C@H](O)C[C@@H]4C[C@H](O)CC[C@]4(C)[C@H]3C[C@H](O)[C@]12C", "value": "0.004 µM"}
{"structure": "COc1ccc2c(c1)N(C(=O)OC(C)C)[C@@H](CSC)C(=S)N2", "value": "25 µM"}
{"structure": "O=C(OC[C@H]1O[C@@H](OC(=O)c2cc(OS(=O)(=O)O)c(OS(=O)(=O)O)c(OS(=O)(=O)O)c2)[C@H](OC(=O)c2cc(OS(=O)(=O)O)c(OS(=O)(=O)O)c(OS(=O)(=O)O)c2)[C@@H](OC(=O)c2cc(OS(=O)(=O)O)c(OS(=O)(=O)O)c(OS(=O)(=O)O)c2)[C@@H]1OC(=O)c1cc(OS(=O)(=O)O)c(OS(=O)(=O)O)c(OS(=O)(=O)O)c1)c1cc(OS(=O)(=O)O)c(OS(=O)(=O)O)c(OS(=O)(=O)O)c1", "value": "150–500 µg/mL"}
{"structure": "CC(C)C[C@H](NC(=O)[C@@H](N)[C@@H](C)O)C(=O)N[C@@H](CC(N)=O)C(=O)N[C@@H](Cc1ccccc1)C(=O)O", "value": ">200 µg/mL"}
{"structure": "CC[C@@]1(O)C(=O)OCc2c1cc1n(c2=O)Cc2cc3c([N+](=O)[O-])cccc3nc2-1", "value": "~0.02 µM"}
{"structure": "CC(=O)N[C@H](C(=O)N[C@@H](CC(C)C)C(=O)N[C@@H](CC(N)=O)C(=O)N[C@@H](Cc1ccccc1)C(=O)O)[C@@H](C)O", "value": ">200 µg/mL"}
{"structure": "C=C(C)OC(=O)N1c2cc(Cl)ccc2NC(=S)C1(C)C", "value": "53 µM"}

The last 3 rows once more:

structure,value
CC[C@@]1(O)C(=O)OCc2c1cc1n(c2=O)Cc2cc3c([N+](=O)[O-])cccc3nc2-1,~0.02 µM
CC(=O)N[C@H](C(=O)N[C@@H](CC(C)C)C(=O)N[C@@H](CC(N)=O)C(=O)N[C@@H](Cc1ccccc1)C(=O)O)[C@@H](C)O,>200 µg/mL
C=C(C)OC(=O)N1c2cc(Cl)ccc2NC(=S)C1(C)C,53 µM